Anti-infective test results gathered from many reports (values: NIAID ChemDB through PubChem).

Common to all: tests on isolated targets

ICn is the concentration giving n% inhibition. Two numbers with a dash give a range or band. An empty or dashed field is not shown. Neighbouring rows are from separate reports. Inhibition is in % at the dose shown (toxicity tests: loss of growth or viability).

smiles | read by | strain | read-out | target | organism | dose | result
Cc1cc(Cl)ccc1C(=O)N(Cc1cccc(-c2cc3ccccc3o2)c1)C(Cc1ccccc1)C(=O)O | - | - | IC50 | RNA-dependent RNA polymerase | Hepatitis C virus | - | <5 µM
O=C(Nc1cscc1-c1nc(C(=O)O)c(O)c(=O)[nH]1)NS(=O)(=O)c1cc(Cl)cc(Cl)c1 | - | - | IC50 | HCV polymerase | Hepatitis C virus | - | <25 µM
Cc1ccccc1S(=O)(=O)Nc1cc(-c2ccc(OC(F)(F)F)cc2)sc1C(=O)O | - | - | IC50 | NS3 ATPase | Hepatitis C virus | - | <5 µM
CSCC[C@H](NC(=O)[C@@H](N)CCC(=O)O)C(=O)N[C@@H](CCC(=O)O)C(=O)N[C@@H](CCC(=O)O)C(=O)N[C@@H](CS)C(=O)O | - | - | IC50 | NS3 protease | Hepatitis C virus | - | 21 µM
C=C[C@@H]1C[C@]1(NC(=O)[C@@H]1C[C@@H](Oc2nccc3ccc(Br)cc23)CN1C(C)=O)C(=O)NS(=O)(=O)C1CC1 | FRET | 1b D168A | IC50 | Nonstructural protein 3/4A | Hepatitis C virus | - | >3 µM
N#Cc1cccc(/C=C2/SC(=S)N(NS(=O)(=O)c3ccccc3)C2=O)c1 | - | - | IC50 | NS5B polymerase | Hepatitis C virus | - | ≤30 µM
O=C(Nc1ccc2[nH]ncc2c1)c1cc(N2CCNCC2)c(F)cc1F | - | - | inhibition | Reverse transcriptase | Hepatitis B virus | 1 µg/mL | 65%
Cc1nn(C)c(Cl)c1S(=O)(=O)Nc1cc(-c2ccccc2)sc1C(=O)O | - | - | IC50 | NS3 ATPase | Hepatitis C virus | - | 5–20 µM
Cc1ccccc1S(=O)(=O)NC(=O)Nc1cscc1-c1nc(C(=O)O)c(O)c(=O)[nH]1 | - | - | IC50 | HCV polymerase | Hepatitis C virus | - | <25 µM
CCCC[C@H](NC(=O)[C@H](CCC(=O)O)NC(=O)[C@@H](N)CC(=O)O)C(=O)N[C@@H](CCC(=O)O)C(=O)N[C@@H](CC1CCCCC1)C(=O)N[C@@H](CS)C(=O)O | - | - | IC50 | NS3 protease | Hepatitis C virus | - | 0.22 µM
O=C(Nc1ccc2cn[nH]c2c1)c1cc(NCc2ccccn2)c(F)cc1F | - | - | inhibition | Nonstructural protein 5B | Hepatitis C virus | 0.1 µg/mL | 28%
O=C(O)[C@@H](Cc1ccccc1)N(Cc1ccc(-c2cc3ccccc3o2)cc1)C(=O)c1ccc(Cl)cc1Cl | - | - | IC50 | RNA-dependent RNA polymerase | Hepatitis C virus | - | <5 µM
O=C(O)c1nc(-c2cnccn2)[nH]c(=O)c1O | - | - | IC50 | HCV polymerase | Hepatitis C virus | - | <100 µM
O=C(O)[C@H](Cc1cn(Cc2ccccc2)cn1)N(Cc1cccc(Br)c1)C(=O)c1ccc(Cl)cc1Cl | - | - | IC50 | RNA-dependent RNA polymerase | Hepatitis C virus | - | 5–20 µM
CC(C)C[C@H](NC(=O)[C@@H](CCC(=O)O)NC(=O)[C@@H](N)CC(=O)O)C(=O)N[C@@H](CCC(=O)O)C(=O)N[C@@H](CC1CCCCC1)C(=O)N[C@@H](CS)C(=O)O | - | - | IC50 | NS3 protease | Hepatitis C virus | - | 0.045 µM
CC1CCC(C(=O)N(c2cc(-c3ccccc3)sc2C(=O)O)C2CCOCC2)CC1 | - | - | IC50 | NS3 ATPase | Hepatitis C virus | - | <5 µM
O=C(O)[C@H](Cc1ccccc1)N(Cc1ccc(-c2ccc(Cl)c(Cl)c2)o1)C(=O)c1ccc(Cl)cc1Cl | - | - | IC50 | RNA-dependent RNA polymerase | Hepatitis C virus | - | <5 µM
COc1ccc(/C=C2/SC(=S)N(Cc3ccccc3)C2=O)cc1 | - | - | IC50 | NS5B polymerase | Hepatitis C virus | - | >30 µM
O=C(O)c1sc(-c2ccccc2)cc1N(Cc1ccc(-c2cccc(C(F)(F)F)c2)o1)C(=O)c1ccc(Cl)cc1Cl | - | - | IC50 | NS3 ATPase | Hepatitis C virus | - | <5 µM
CC[C@H](NC(=O)[C@H](CC1CCCCC1)NC(=O)[C@H](CCC(=O)O)NC(=O)[C@H](CC(C)C)NC(=O)[C@H](CCC(=O)O)NC(=O)[C@@H](N)CC(=O)O)C(=O)O | - | - | IC50 | NS3 protease | Hepatitis C virus | - | 1.6 µM
CN1CCN(c2cc(C(=O)Nc3ccc4cn[nH]c4c3)c(F)cc2F)CC1 | - | - | inhibition | Reverse transcriptase | Hepatitis B virus | 1 µg/mL | 53%
CC(C)[C@H](NC(=O)[C@H](CCC(=O)O)NC(=O)[C@@H](N)CC(=O)O)C(=O)N[C@H](C(=O)N[C@@H](CS)C(=O)N[C@@H](CS)C(=O)O)C(C)C | - | - | IC50 | NS3 protease | Hepatitis C virus | - | 2.1 µM
O=C(NN1C(=O)/C(=C\c2ccc(Cl)cc2)SC1=S)c1ccccc1 | - | - | IC50 | NS5B polymerase | Hepatitis C virus | - | >30 µM
C=CCCC(=O)N(C)c1cc(-c2ccccc2)sc1C(=O)O | - | - | IC50 | NS3 ATPase | Hepatitis C virus | - | 5–20 µM
COc1cc(OC)c(C(=O)Nc2ccsc2-c2nc(C(=O)O)c(O)c(=O)[nH]2)cc1OC | - | - | IC50 | HCV polymerase | Hepatitis C virus | - | <25 µM
O=C(Nc1ccc2cn[nH]c2c1)c1cc(N2CCN(CCO)CC2)c(F)cc1F | - | - | inhibition | Reverse transcriptase | Hepatitis B virus | 0.1 µg/mL | 50%
O=C(O)[C@H](Cc1ccc(O)cc1)N(Cc1ccc(-c2cc3ccccc3o2)cc1)C(=O)c1ccc(Cl)cc1Cl | - | - | IC50 | RNA-dependent RNA polymerase | Hepatitis C virus | - | <5 µM
O=C1/C(=C\c2ccc(SC(F)(F)F)cc2)SC(=S)N1NS(=O)(=O)c1ccccc1 | - | - | IC50 | NS5B polymerase | Hepatitis C virus | - | ≤30 µM
CC(CNC(=O)OC(C)(C)C)N(C(=O)c1ccc(Cl)cc1Cl)c1cc(-c2ccccc2)sc1C(=O)O | - | - | IC50 | NS3 ATPase | Hepatitis C virus | - | <5 µM
O=C(Nc1ccc2cn[nH]c2c1)c1cc(N2CCNCC2)c(F)cc1F | - | - | inhibition | Nonstructural protein 5B | Hepatitis C virus | 1 µg/mL | 24%
NN1C(=O)/C(=C\c2ccc([N+](=O)[O-])cc2)SC1=S | - | - | IC50 | NS5B polymerase | Hepatitis C virus | - | ≤30 µM
O=C(Nc1ccc2[nH]ncc2c1)c1cc(NCc2ccccn2)c(F)cc1F | - | - | inhibition | Reverse transcriptase | Hepatitis B virus | 0.01 µg/mL | 31%
CC[C@H](NC(=O)[C@H](CCC(=O)O)NC(=O)[C@H](CCC(=O)O)NC(=O)[C@H](CCSC)NC(=O)[C@H](CCC(=O)O)NC(=O)[C@@H](N)CC(=O)O)C(=O)O | - | - | IC50 | NS3 protease | Hepatitis C virus | - | 5.8 µM
C[C@H](c1ccccc1)N(C(=O)c1ccc(Cl)cc1Cl)c1cc(-c2ccccc2)sc1C(=O)O | - | - | IC50 | NS3 ATPase | Hepatitis C virus | - | <5 µM
O=C(Nc1cccc(-c2nc(C(=O)O)c(O)c(=O)[nH]2)c1)Nc1cccc(Cl)c1Cl | - | - | IC50 | HCV polymerase | Hepatitis C virus | - | <100 µM
CC[NH+](CC)c1ncc(CN(C(=O)c2ccc(Cl)cc2Cl)c2cc(-c3ccccc3)sc2C(=O)O)s1 | - | - | IC50 | NS3 ATPase | Hepatitis C virus | - | <5 µM
CC(C)[C@H](NC(=O)[C@H](CC(=O)O)NC(=O)[C@@H](N)CCC(=O)O)C(=O)N[C@H](C(=O)N[C@@H](CS)C(=O)N[C@@H](CS)C(=O)O)C(C)C | - | - | IC50 | NS3 protease | Hepatitis C virus | - | 5.3 µM
COc1ccc(NC(=O)Nc2cccc(-c3nc(C(=O)O)c(O)c(=O)[nH]3)c2)cc1 | - | - | IC50 | HCV polymerase | Hepatitis C virus | - | <100 µM
O=S(=O)(NN1C(=S)S/C(=C\c2ccc(Cl)c(Cl)c2)C1O)c1ccccc1 | - | - | IC50 | NS5B polymerase | Hepatitis C virus | - | ≤30 µM
CC(C)N(C(=O)c1cc2c(Cl)cc(Cl)cc2[nH]1)c1cc(-c2ccccc2)sc1C(=O)O | - | - | IC50 | NS3 ATPase | Hepatitis C virus | - | <5 µM
CN1C(=O)/C(=C\c2ccc(Cl)c(Cl)c2)SC1=S | - | - | IC50 | NS5B polymerase | Hepatitis C virus | - | >30 µM
O=C(Nc1cscc1-c1nc(C(=O)O)c(O)c(=O)[nH]1)NS(=O)(=O)c1ccccc1 | - | - | IC50 | HCV polymerase | Hepatitis C virus | - | <25 µM
COC(=O)NN1C(=O)/C(=C\c2ccc(Cl)c(Cl)c2)SC1=S | - | - | IC50 | NS5B polymerase | Hepatitis C virus | - | ≤30 µM
O=C(O)c1nc(C(OCc2ccccc2)c2cccs2)[nH]c(=O)c1O | - | - | IC50 | HCV polymerase | Hepatitis C virus | - | <100 µM
CC[C@H](NC(=O)[C@@H](NC(=O)[C@@H](NC(=O)[C@H](CC(=O)O)NC(=O)CCC(=O)O)C(C)C)C(C)C)C(=O)N[C@@H](CS)C(=O)O | - | - | IC50 | NS3 protease | Hepatitis C virus | - | 4.6 µM

Again, the opening 4 rows:

smiles | read by | strain | read-out | target | organism | dose | result
Cc1cc(Cl)ccc1C(=O)N(Cc1cccc(-c2cc3ccccc3o2)c1)C(Cc1ccccc1)C(=O)O | - | - | IC50 | RNA-dependent RNA polymerase | Hepatitis C virus | - | <5 µM
O=C(Nc1cscc1-c1nc(C(=O)O)c(O)c(=O)[nH]1)NS(=O)(=O)c1cc(Cl)cc(Cl)c1 | - | - | IC50 | HCV polymerase | Hepatitis C virus | - | <25 µM
Cc1ccccc1S(=O)(=O)Nc1cc(-c2ccc(OC(F)(F)F)cc2)sc1C(=O)O | - | - | IC50 | NS3 ATPase | Hepatitis C virus | - | <5 µM
CSCC[C@H](NC(=O)[C@@H](N)CCC(=O)O)C(=O)N[C@@H](CCC(=O)O)C(=O)N[C@@H](CCC(=O)O)C(=O)N[C@@H](CS)C(=O)O | - | - | IC50 | NS3 protease | Hepatitis C virus | - | 21 µM